In US8216595B2 (priority 2007, dated 2012):

Tested on: HA antigen
Assay: Example 2: isotypes of induced HA specific antibody (IgG1, IgG2a)
Format: in vivo, C57BL/6 female mice
Details: 1.8 μg split vaccine antigen + 20 μg adjuvant, i.m. two times; ratio calculated from isotype antibody titers

Compound	IgG2a/IgG1 (%)
polyinosinic:polycytidylic acid	6.17%
CCCCCCCCCCCCCCCC(=O)N[C@@H](CSC[C@@H](COC(=O)CCCCCCCCCCCCCCC)OC(=O)CCCCCCCCCCCCCCC)C(=O)N[C@@H](CO)C(=O)N[C@@H](CCCCN)C(=O)N[C@@H](CCCCN)C(=O)N[C@@H](CCCCN)C(=O)N[C@@H](CCCCN)C(=O)O (racemic) [Pam3Cys-SKKKK, N-palmitoyl-S-[2,3-bis(palmitoyloxy)-(2RS)-propyl]-[R]-cystein-SKKKK]	7.59%
